{
  "source": "paper PMC12175177",
  "about": "(Frontiers in Pharmacology, 2025)",
  "system": "SARS-CoV-2 A2.5 variant",
  "type": "cell-based",
  "data": [
    {"smiles": "COc1cc(NC(C)CCCN)c2ncccc2c1", "note": "(stereo not shown) [Primaquine Phosphate (PQ), Primaquine Phosphate]", "values": [
      {"measurement": "SI (selectivity index = CC50%/IC50%)", "value": 1}
    ]}
  ]
}
